Experimental data taken from paper PMC9738830.

Molecular target: Amyloid β 1–42 oligomers Aβ 1-42, Homo sapiens (UniProt P05067)
Test: sandwich plate assay (chemiluminescent, Scatchard plot)

PrP–ALP (mouse PrPc 23–111 fused to E. coli alkaline phosphatase D101S) 23-111
Kd: 0.56 nM
